# Test system: subtilisin
# Assay: Proteolysis assay with subtilisin, 24 h
# Design: species or system Bacillus licheniformis
molecule,measurement,setting,value
FasDD: intracellular death domain of Fas (protein) SKYITTIAGVMTLSQVKGFVRKNGVNEAKIDEIKNDNVQDTAEQKVQLLRNWHQLHGKKEAYDTLIKDLKKANLCTLAEKIQTII,"stability to subtilisin, in 2:1 Ca^2+/CaM:FasDD complex","subtilisin 1:500 (enzyme:complex), 4°C, pH 7.0, SDS-PAGE",cleaved to fragment(s) of ~5 kDa
same,"stability to subtilisin, unbound","subtilisin 1:500, 4°C, 50 mM HEPES (pH 7.0), 50 mM NaCl, 5 mM CaCl2, SDS-PAGE",resistant to proteolysis by subtilisin
